In patent US20220220106A1, “QUINOLINE COMPOUNDS AND PHARMACEUTICAL COMPOSITIONS AND USES THEREOF” (Academy of Military Medical Sciences, priority 2019, published 2022):

Test system: Enterovirus 71 (EV71) H strain
Experiment: In vitro anti-EV71 activity (antiviral activity in RD cells, CellTiter-Glo)
Format: cell-based
Settings: selection index SI=TD50/IC50
Procedure: According to the mass and molecular weight of the compound to be tested, the compound to be tested was dissolved to 100 mM (mmol/L) with DMSO.
Detection of Antiviral Activity:
(1) First, the compound to be tested was diluted to 800 μM with cell maintenance solution (DMEM+2% FBS, Gibco, catalog numbers: 11995-065, 1600-044), and three-fold gradient dilution was performed to prepare 10 concentrations in total. The diluted compound was added to a 96-well plate with white wall and transparent bottom, 50 μl per well. To both the cell control group and the virus control group, an equal volume of the cell maintenance solution was added.
(2) EV71 virus (purchased from ATCC) was taken out from the −80° C. refrigerator and equilibrated to room temperature.
(3) The virus seed was diluted with a virus growth solution (DMEM+2% FBS, Gibco, catalog numbers: 11995-065, 1600-044) to 100TCID50, the diluted virus seed was added to the 96-well plate of (1), with […] per well. The same volume of the virus growth solution was added to the cell control group.
(4) RD cells (purchased from ATCC) were inoculated at a concentration of 1*10^5/mL into the 96-well plate of (1), with 100 μL per well, to reach a final volume of 200 μL per well. The final concentration of drug was 0.25 times the initial concentration.
(5) RD cells were cultured at 37° C. for 4 days for testing.
(6) The Buffer of CellTiter-Glo® luminescent cell viability assay reagent (Promega) was mixed with the substrate in the dark to prepare a working solution.
(7) The culture medium in the plate was discarded, the plate was dried by patting, 100 μL of the detection reagent was added to each well, and the 96-well plate was shaken on an orbital shaker for 4 minutes to induce cell lysis. After keeping in the dark and subjecting to signal stabilization for 15 minutes, the chemiluminescence unit was detected by using MD5 microplate reader (Molecular Devices), and the plate reading program was performed according to the CellTiter-Glo preset program.
The inhibition rate-concentration curve was fitted to S-curve by using origin8.0 software to calculate the IC50 value of the compound to be tested.
The formula for calculating the inhibition rates of drug at different dilution degrees was as follows: inhibition rate (%)=(average value of cell control group−value of experimental group)/(average value of cell control group−minimum value of experimental group)*100
The inhibition rate-concentration curve was fitted to S-curve by using origin8.0 software, and the IC50 value of the compound to be tested was calculated. The same method was used to calculate the TD50 value, and the selection index SI=TD50/IC50 was calculated according to the half maximal inhibitory concentration IC50 and the median toxic dose TD50.

Row | Structure (SMILES) | SI
1 | CCOC(=O)/C=C/c1ccc2ncc3ccc(=O)n(-c4cccc(C(F)(F)F)c4)c3c2c1 [HTL-7-26, (E)-9-[2-ethoxycarbonyl-vinyl]-2-oxo-1-[3-(trifluoromethyl)phenyl]-1,2-dihydrobenzo[h][1,6]naphthyridine] | 4.61
2 | CCOC(=O)/C=C/c1ccc2ncc3oc(=O)n(-c4cccc(C(F)(F)F)c4)c3c2c1 [WSX-1-13, (E)-8-(2-ethoxycarbonyl-vinyl)-1-[3-(trifluoromethyl)phenyl]oxazolo[5,4-c]quinolin-2(1H)-one] | 0.74
